1 sequence from PMC6167350, “Small-molecule AgrA inhibitors F12 and F19 act as antivirulence agents against Gram-positive pathogens” (Scientific Reports, 2018) can be followed below.

This series concerns the target T1, AgrA_C (C-terminal DNA-binding domain of AgrA) (UniProt Q8CNM5).
T1 sequence (looked up): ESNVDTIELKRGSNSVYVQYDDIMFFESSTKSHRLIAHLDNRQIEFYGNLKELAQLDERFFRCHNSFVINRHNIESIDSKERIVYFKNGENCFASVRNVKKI
Kind of series: EMSA. The note with it: 1 uM AgrA_C, 1 nM DNA, 0.1 uM F19, 1% DMSO, complex band present, EMSA: 1 nM 32P-P3 DNA, constant 1% DMSO, pH and temperature not given (procedure cited from ref. 8), recombinant protein, residues 137-238, protein details: His tag (pET28b, NdeI/HindIII), label: 32P end label. (In general: In EMSA bound probe runs differently from free probe, usually more slowly.)

For at least one entry, the source does not settle the construct or the ends of the probe. Tags and fusion partners may be left off the protein sequences shown.

On to “TAGAAACAATCTTATTTTTTTTGAATATAC (double strand) [P3 DNA (agr P3 promoter oligonucleotide)]”, for which the binding result is “binds”.
